# Paper PMC7868322, “Rational Design of A Novel Small-Molecule HIV-1 Inactivator Targeting Both gp120 and gp41 of HIV-1” (Frontiers in Pharmacology, 2021)
# Test system: CEMx174 5.25 M7 cells
# Test: Cytotoxicity (CCK-8)
# Format: cell-based
# Conditions: 48 h, read-out: CC50, CEMx174 5.25 M7 cell
# Protocol: Cell viability was detected following the instructions in the protocol provided in the cell counting kit-8 (CCK-8; Dojindo Molecular Technologies, Gaithersburg, MD, USA) as previously described ([Yang et al., 2018]). Briefly, MT-2 cells and CEMx174 517 5.25 M7 cells (3 × 10^4/well) were incubated with compounds at different concentrations at 37°C for 48 h. Then, the supernatant was discarded, and CCK8 diluted 10 times with fresh medium was added (200 μL/well). After 2–6 h of incubation at 37°C, the absorbance at 450 nm was measured using a microplate reader (Tecan, Männedorf, Switzerland).
substance,measurement,value
Maraviroc [reference compound],CC50,> 50 µM
